Measurements: US6274636A (priority 1999, dated 2001)

System: 5-HT-2 receptor
Assay: activity at the 5-HT-2 receptor
Settings: anhydrous Form II

Cc1cc2c(s1)Nc1ccccc1N=C2N1CCN(C)CC1 [anhydrous Form II, 2-methyl-4-(4-methyl-1-piperazinyl)-10H-thieno[2,3-b][1,5]benzodiazepine]
activity at the 5-HT-2 receptor: active
